Anti-infective test results gathered from many reports (values: NIAID ChemDB through PubChem).

Common to all: whole-cell or culture tests; species: HIV-2; endpoint: EC50

An empty or dashed field is not shown. Rows are shuffled and stem from different studies. ECn is the concentration giving n% inhibition of infection, replication or growth.

compound | read by | cells | strain or isolate | value
Nc1nc(=S)c2nc(-c3ccccn3)c(-c3ccccn3)nc2[nH]1 | cytopathic effect / MTT / absorbance | MT-4 | ROD | >47.64 µM
CC(=O)OCCOCN1C=CC(N)=NS1(=O)=O | cytopathic effect / MTT | MT-4 | - | >400 µg/mL
C=CCNc1c(N=Nc2ccc(-c3ccc(F)cc3)cc2)c(N)nc(=O)n1C | MTT | MT-2 | ROD | >10.42 µM
O=C(c1ccccc1)c1ccc2c(c1)sc(=O)n2Cc1ccccc1 | syncytia | CEM | ROD | >8 µg/mL
Cc1cc(C#N)cc(C)c1Oc1ncc(N)c(Nc2ccc(C#N)cc2)n1 | MTT | MT-4 | ROD | >35.1 µM
O=c1nc2c(cn1[C@@H]1O[C@H](CO)[C@@H](O)[C@H]1O)CON2 | - | CEM | ROD | >300 µM
O=[N+]([O-])c1ccc[n+]([O-])c1SCc1ccccc1 | syncytia | CEM | EHO | >20 µg/mL
C[C@]12CCC3C(CC=C4C[C@@H](O)CC[C@@]43C)C1CCC2C(=O)/C=C/c1ccc2c(c1)Cc1ccccc1-2 | MTT | MT-4 | ROD | >7.62 µM
[N-]=[N+]=N[C@H]1C[C@H](n2cc(CCO)c(=O)[nH]c2=O)O[C@@H]1CO | - | CEM | ROD | >300 µM
Cc1cc(C)c(CS(=O)c2cccc[n+]2[O-])c(C)c1 | syncytia | CEM | EHO | 2.1 µg/mL
Cc1ccnc2c1NC(=O)c1cccnc1N2C1CC1 | MTT | MT-4 | ROD | >15 µM
Cc1ccc(C)c(C(C)Sc2cccc[n+]2[O-])c1 | syncytia | CEM | ROD | >20 µg/mL
CCN(CC)c1c(N=Nc2ccc(-c3ccc(OC)c(OC)c3)cc2)c(N)nc(=O)n1C | MTT | MT-4 | ROD | >25.23 µM
N#CC(c1ccc(F)cc1)S(=O)c1cccc[n+]1[O-] | syncytia | CEM | ROD | >0.8 µg/mL
C#CCOCN1C(=O)C=C(C)N(COCC#C)S1(=O)=O | cytopathic effect / MTT | MT-4 | - | >400 µg/mL
CN1C(=O)[C@@H](Cc2ccccc2)NC1=S | RT activity | MT-4 | - | <100 µg/mL
O=c1[nH]c2ccc(Cc3cccc(F)c3)cc2s1 | syncytia | CEM | ROD | >1.6 µg/mL
Nc1nc(N)c(Cc2ccccc2)c(OCCOCP(=O)(O)O)n1 | syncytia | CEM | ROD | ≥300 µM
N#Cc1ccc(Nc2nc(Oc3c(Br)cc(Br)cc3Br)ncc2N)cc1 | MTT | MT-4 | ROD | >37 µM
c1ccc(COc2cccnc2SCc2ccccc2)cc1 | syncytia | CEM | ROD | >4 µg/mL
Nc1ccnc(OC[C@H]2CC[C@@H](COCc3ccccc3)O2)n1 | syncytia | CEM | ROD | >250 µM
Cn1c(=O)sc2cc(C(=O)c3cccc(F)c3)ccc21 | syncytia | CEM | ROD | >40 µg/mL
C[C@H](CSCC(=O)O)C(=O)N1CCC[C@@H]1C(=O)O | MTT | MT-4 | ROD | >125 µg/mL
Cc1ccc(C)c(C(C)S(=O)(=O)c2ccc(C)c[n+]2[O-])c1 | syncytia | CEM | ROD | >100 µg/mL
C[C@]12CCC3C(CC=C4C[C@@H](O)CC[C@@]43C)C1CCC2C(=O)/C=C/c1ccoc1 | MTT | MT-4 | ROD | >12 µM
C[C@H](Cn1cnc2c(N)ncnc21)OCP(=O)(O)O | syncytia | CEM | ROD | 1.3 µM
CC1(C)[C@@H](CCO)C[C@H]1n1nnc2c(Cl)nc(N)nc21 | cytopathic effect | CEM | - | >4 µg/mL
O=C1[C@@H](Cc2ccccc2)NC(=S)N1Cc1ccccc1 | cytopathic effect / XTT | MT-4 | - | <10 µg/mL
O=C(c1ccccc1)c1ccc2c(c1)oc(=O)n2Cc1ccccc1 | syncytia | CEM | ROD | >40 µg/mL
O=C(CSc1nc2nc(C3=CCC=C=N3)c(-c3ccccn3)nc2c(=O)[nH]1)c1ccccc1 | cytopathic effect / MTT / absorbance | MT-4 | ROD | >41.88 µM
Cc1ccc(C)c(CS(=O)(=O)c2cccc(C)[n+]2[O-])c1 | syncytia | CEM | ROD | >100 µg/mL
O=S(=O)(Cc1ccccc1I)c1cccc[n+]1[O-] | syncytia | CEM | ROD | 8 µg/mL
Cc1ccccc1CS(=O)(=O)c1c(C)ccc[n+]1[O-] | syncytia | CEM | ROD | ≥20 µg/mL
COc1cc(OC[C@H]2CC[C@@H](COCc3ccccc3)O2)ncn1 | syncytia | CEM | ROD | >10 µM
O=C(c1ccccc1)c1ccc2c(c1)oc(=O)n2CCN1CCOCC1 | syncytia | CEM | ROD | >8 µg/mL
CCCCCCCCCC[N+](C)(C)CCCNCc1c(O)cc2c(c1O)-c1cc(ccc1O)[C@H]1NC(=O)[C@@H]3NC(=O)C4NC(=O)[C@@H](Cc5ccc(c(Cl)c5)Oc5cc3cc(c5O)Oc3ccc(cc3Cl)[C@@H](O)[C@H](NC1=O)C(=O)N[C@@H]2C(=O)O)NC(=O)[C@H](N)c1ccc(O)c(c1)Oc1cc(O)cc4c1 | syncytia | CEM | RF | 3.7 µM
CCOC(=O)c1c([C@@H]2C[C@H]2c2ccccc2)n(C)c2ccc(O)cc12 | MTT | MT-4 | ROD | 5.4 µM
Nc1cc(OC[C@@H]2O[C@H](CO)[C@@H](O)[C@H]2O)nc(N)n1 | syncytia | CEM | ROD | >100 µM
Cn1c(-c2ccc(F)cc2)cc(N)nc1=O | MTT | MT-4 | ROD | >19.35 µM
COC(=O)[C@H](C)NP(=O)(OC[C@@H]1C=C[C@H](n2cc(C)c(=O)[nH]c2=O)O1)Oc1ccccc1 | - | CEM + CEM/O | ROD | 0.102 µM
[O-][n+]1ccccc1SCc1ccccc1 | syncytia | CEM | ROD | >100 µg/mL
CC1(C)[C@@H](CCO)C[C@H]1n1nnc2c(=O)[nH]c(N)nc21 | cytopathic effect | CEM | - | >100 µg/mL
O=c1[nH]c(=S)c2nc(-c3ccccn3)c(-c3ccccn3)nc2[nH]1 | cytopathic effect / MTT / absorbance | MT-4 | ROD | >112 µM
O=C(O)c1ccc(CS(=O)(=O)c2cccc[n+]2[O-])cc1 | syncytia | CEM | ROD | ≥100 µg/mL
[N-]=[N+]=N[C@H]1C[C@H](n2cc3c(nc2=O)NOCC3)O[C@@H]1CO | - | CEM | ROD | 200 µM
CC1(C)[C@@H](CCO)C[C@H]1n1nnc2c(=O)[nH]cnc21 | cytopathic effect | MT-4 | - | >100 µg/mL
CCOC(=O)c1c(CSc2ccccc2)n(C)c2cc(Br)c(O)c(CN(C)C)c12 | MTT | MT-4 | ROD | >8.4 µM
CCC(c1cc(C)ccc1C)S(=O)(=O)c1cccc[n+]1[O-] | syncytia | CEM | ROD | >20 µg/mL
Nc1nc(N)c(Cl)c(OCCOCP(=O)(O)O)n1 | syncytia | CEM | ROD | 4.4 µM
COc1ccc(CS(=O)c2cccc[n+]2[O-])cc1OC | syncytia | CEM | ROD | >0.8 µg/mL
C[C@]12CCC3C(CC=C4CC(O)CC[C@@]43C)C1CCC2C1=NN(C(N)=S)C(c2ccc(Br)cc2)C1 | MTT | MT-4 | ROD | >11.78 µM
Cc1ccc(C)c(CS(=O)c2ncccc2O)c1 | syncytia | CEM | ROD | >100 µg/mL
COc1ccc(C)cc1CS(=O)(=O)c1cccc[n+]1[O-] | syncytia | CEM | ROD | 40 µg/mL
Cc1ccc[n+]([O-])c1S(=O)(=O)Cc1ccccc1Cl | syncytia | CEM | ROD | >4 µg/mL
OC[C@@H]1CC[C@H](COc2ncnc3nc[nH]c23)O1 | syncytia | CEM | ROD | >250 µM
Nc1nc(N)c(Br)c(OCCOCP(=O)(O)O)n1 | syncytia | CEM | ROD | 9.5 µM
CCNc1c(N=Nc2ccc(Cl)cc2)c(N)nc(=O)n1C | MTT | MT-4 | ROD | >36.72 µM
Nc1cc(OC[C@H](CO)OCP(=O)(O)O)nc(N)n1 | syncytia | CEM | ROD | 14 µM
O=C1[C@@H](Cc2ccccc2)NC(=S)N1c1ccccc1 | RT activity | MT-4 | - | <100 µg/mL
C[C@H](Cn1cnc2c(N)ncnc21)OCP(=O)(O)O | syncytia | CEM | ROD | 1.4 µM
C[C@H](CS)C(=O)N1CCC[C@@H]1c1nc2c(Cl)cccc2[nH]1 | MTT | MT-4 | ROD | >28.17 µg/mL
CC(Cl)(c1ccccc1)S(=O)(=O)c1cccc[n+]1[O-] | syncytia | CEM | ROD | >20 µg/mL
C[C@]12CCC3C(CC=C4C[C@@H](O)CC[C@@]43C)C1CCC2C(=O)/C=C/c1cc(Br)ccc1O | MTT | MT-4 | ROD | >12.05 µM
Clc1ccc(CSc2ccccn2)cc1 | syncytia | CEM | ROD | ≥0.8 µg/mL
O=C(NCCc1ccccc1)Nc1nc2c(Cl)cccc2s1 | RT activity | MT-4 | - | <10 µg/mL
O=C1C=CN(COCc2ccccc2)S(=O)(=O)N1 | cytopathic effect / MTT | MT-4 | - | >400 µg/mL
Cc1ccc(C)c(CSc2ccc(Cl)c[n+]2[O-])c1 | syncytia | CEM | ROD | >100 µg/mL
Cn1c(N2CCCCC2)c(N=Nc2ccc(Cl)cc2)c(N)nc1=O | MTT | MT-4 | ROD | >20.11 µM
O=C1/C(=C\c2ccc(SC3=CC=C3)cc2)N(CCc2cccs2)C(=S)N1CCc1cccs1 | MTT | MT-4 | ROD | 102 µg/mL
Cc1cccc(CS(=O)(=O)c2cccc[n+]2[O-])c1 | syncytia | CEM | ROD | 12 µg/mL
Cc1ccc(C)c(CSc2ncccc2O)c1 | syncytia | CEM | ROD | >4 µg/mL
Cc1ccc(C)c(CS(=O)(=O)c2ccccn2)c1 | syncytia | CEM | EHO | >20 µg/mL
Cc1ccc(C(C)S(=O)c2cccc[n+]2[O-])c(Cl)c1 | syncytia | CEM | ROD | >0.8 µg/mL
N#Cc1ccc(Nc2nc(Oc3c(Br)cc(Br)cc3Br)ncc2[N+](=O)[O-])cc1 | MTT | MT-4 | ROD | >20 µM
CCCCN1C(=O)[C@@H](Cc2ccccc2)NC1=S | cytopathic effect / XTT | MT-4 | - | <10 µg/mL
S=c1nc[nH]c2nc(-c3ccccn3)c(-c3ccccn3)nc12 | cytopathic effect / MTT / absorbance | MT-4 | ROD | >115 µM
O=C(NCCc1ccccc1)Nc1nc(C(F)(F)F)cs1 | RT activity | MT-4 | - | <1 µg/mL
CC1(C)[C@@H](CCO)C[C@H]1n1nnc2c(N)ncnc21 | cytopathic effect | MT-4 | - | >100 µg/mL
C=CCC(c1cc(C)ccc1C)S(=O)(=O)c1cccc[n+]1[O-] | syncytia | CEM | ROD | ≥20 µg/mL
O=C(c1ccc(Cl)c(Cl)c1)c1ccc2[nH]c(=O)sc2c1 | syncytia | CEM | ROD | >1.6 µg/mL
Cc1ccc(C)c(C(c2ccccc2)S(=O)(=O)c2cccc[n+]2[O-])c1 | syncytia | CEM | ROD | >20 µg/mL
Nc1nc(OC[C@H]2CC[C@@H](CO)O2)c2[nH]cnc2n1 | syncytia | CEM | ROD | >250 µM
Cc1cccc(C(=O)c2ccc3c(c2)sc(=O)n3C)c1 | syncytia | CEM | ROD | <1.6 µg/mL
CN1OCCc2cn([C@H]3C[C@H](O)[C@@H](CO)O3)c(=O)nc21 | - | CEM | ROD | >300 µM
CC(=O)n1c(=O)sc2cc(C(=O)c3ccccc3)ccc21 | syncytia | CEM | ROD | 4.6 µg/mL
CC(=O)N1C(=O)[C@@H](Cc2ccccc2)NC1=S | cytopathic effect / XTT | MT-4 | - | >100 µg/mL
C[C@H](CS)C(=O)N1CCC[C@@H]1c1nc2ncccc2[nH]1 | MTT | MT-4 | ROD | >4.24 µg/mL
O=C1/C(=C\c2ccccc2)N(CCc2cccs2)C(=S)N1CCc1cccs1 | MTT | MT-4 | ROD | >59.38 µg/mL
C#CCOCN1C=CC(=O)NS1(=O)=O | cytopathic effect / MTT | MT-4 | - | >400 µg/mL

For reference, 9 entries again:

compound	read by	cells	strain or isolate	value
Nc1nc(N)c(Cc2ccccc2)c(OCCOCP(=O)(O)O)n1	syncytia	CEM	ROD	≥300 µM
Cc1ccnc2c1NC(=O)c1cccnc1N2C1CC1	MTT	MT-4	ROD	>15 µM
O=S(=O)(Cc1ccccc1I)c1cccc[n+]1[O-]	syncytia	CEM	ROD	8 µg/mL
CN1OCCc2cn([C@H]3C[C@H](O)[C@@H](CO)O3)c(=O)nc21	-	CEM	ROD	>300 µM
Cc1ccc(C)c(CSc2ccc(Cl)c[n+]2[O-])c1	syncytia	CEM	ROD	>100 µg/mL
COc1ccc(CS(=O)c2cccc[n+]2[O-])cc1OC	syncytia	CEM	ROD	>0.8 µg/mL
Cc1ccc(C)c(C(C)Sc2cccc[n+]2[O-])c1	syncytia	CEM	ROD	>20 µg/mL
Nc1cc(OC[C@H](CO)OCP(=O)(O)O)nc(N)n1	syncytia	CEM	ROD	14 µM
C[C@H](CS)C(=O)N1CCC[C@@H]1c1nc2c(Cl)cccc2[nH]1	MTT	MT-4	ROD	>28.17 µg/mL